A mixed list of measured activities; the numbers were collected in NIAID ChemDB.

Shared fields: whole-cell or culture tests

Inhibition is in % at the dose shown (toxicity tests: loss of growth or viability). An empty or dashed field is not shown. A number after MIC or MFC names an inhibition level or a share of isolates. Zones are inhibition diameters on agar. Neighbouring rows are from separate reports.

compound | strain | endpoint | tested at | read by | species | result
c1ccc(C(c2ccccc2)n2cncn2)cc1 | - | MIC90 | - | agar | Candida glabrata | 0.5 µg/mL
O=C(NN=Cc1ccco1)c1snnc1C(F)(F)F | NCIM 3462 | zone | 150 µg/mL | agar diffusion / agar | Candida rugosa | 0 mm
CC(C)(O)c1cn(-c2ccc([N+](=O)[O-])cc2)nn1 | URM 4986 | inhibition | 2048 µg/mL | broth dilution | Candida albicans | 0%
C[C@@H]1CC(=O)N(CCc2ccccc2)C1=O | CCC 134-2000 | MIC | - | broth dilution / turbidity | Candida lusitaniae | 62.5 µg/mL
O/N=C\c1ccccc1Cl | - | MIC100 | - | - | Candida famata | 1420 µM
CC(C)(O)c1cn(-c2cccc3ccccc23)nn1 | URM 4388 | inhibition | 2048 µg/mL | broth dilution | Candida albicans | 0%
C[C@@H]1CC(=O)N(CCCCc2ccccc2)C1=O | CCC 134-2000 | MIC | - | broth dilution / turbidity | Candida lusitaniae | 125 µg/mL
CCC(C)n1ncn(-c2ccc(N3CCN(c4ccc(OC[C@H]5CO[C@](Cn6cncn6)(c6ccc(Cl)cc6Cl)O5)cc4)CC3)cc2)c1=O | - | MIC50 | - | broth dilution | Candida guilliermondii | 0.25 µg/mL
CC1C(=O)N(Cc2ccccc2)C(=O)C1C | CCC 134-2000 | MIC | - | broth dilution / turbidity | Candida lusitaniae | 125 µg/mL
CCOc1ccc2nc3cc(N=C4NC(=O)/C(=C\C=C\c5ccc([N+](=O)[O-])o5)S4)ccc3c(N)c2c1 | ATCC 8614 | MFC | - | broth dilution | Candida kefyr | 1000 µg/mL
O=C(NN=Cc1ccccc1)c1snnc1C(F)(F)F | NCIM 3462 | zone | 150 µg/mL | agar diffusion / agar | Candida rugosa | 6 mm
O=C(c1ccccc1)C(c1ccccc1)n1cnc2ccccc21 | - | MIC90 | - | agar | Candida dubliniensis | 32 µg/mL
Cc1ccc(-n2cc(C(C)(C)O)nn2)cc1C | URM 4263 | inhibition | 2048 µg/mL | broth dilution | Candida krusei | 0%
OC(CCn1ccnc1)c1ccc(-c2ccccc2)cc1 | RTCC 1377 | MIC | - | broth dilution | Candida guilliermondii | >64 µg/mL
CC1(C)O[C@H]2[C@H](O)[C@@H](N=[N+]=[N-])C=C(c3ccc(C=O)cc3)[C@H]2O1 | C 131 | inhibition | 250 µg/mL | broth dilution / turbidity | Candida tropicalis | 91.68%
O=C(CCn1ccnc1)c1ccc(Cl)cc1 | RTCC1248 | MIC | - | broth dilution | Candida guilliermondii | >64 µg/mL
CC(O)Cc1ccc(Cn2cc(CN3CCN([C@H](C)[C@](O)(Cn4cncn4)c4ccc(F)cc4F)CC3)c3cccc(F)c32)cc1 | ATCC 36082 | MIC80 | - | resazurin | Candida albicans | 2 µg/mL
c1ccc(C(c2ccccc2)n2nnc3ccccc32)cc1 | - | MIC90 | - | agar | Candida dubliniensis | >256 µg/mL
C[C@@H](N1CCN(Cc2cn(Cc3cccc(C(F)(F)F)c3)c3ccccc23)CC1)[C@](O)(Cn1cncn1)c1ccc(F)cc1F | ATCC 64548 | MIC80 | - | resazurin | Candida albicans | 0.125 µg/mL
CC(C)(O)c1cn(-c2ccccc2)nn1 | URM 4984 | inhibition | 2048 µg/mL | broth dilution | Candida parapsilosis | 0%
O=C(CCn1ccnc1)c1cccc2ccccc12 | RTCC 1074 | MIC | - | broth dilution | Candida kefyr | 64 µg/mL
CC1C(=O)N(c2ccccc2)C(=O)C1C | CCC 134-2000 | MIC | - | broth dilution / turbidity | Candida lusitaniae | 62.5 µg/mL
C=CCc1ccc(OC)c(OC)c1 | 2858 | MIC90 | - | turbidity | Candida tropicalis | 345 µg/mL
NC(=NC1CCCC1)c1ccc(-c2ccc(-c3ccc(C(N)=NC4CCCC4)cc3)o2)cc1 | Isolate 3022 fluconazole-resistant | MFC | - | - | Candida albicans | 25 µg/mL
OC(CCn1ccnc1)c1cccc(C(O)c2ccc(Cl)c(Cl)c2)c1 | RTCC 1074 | MIC | - | broth dilution | Candida kefyr | 4 µg/mL
C[C@@H](N1CCN(Cc2cn(Cc3ccc(Cl)cc3Cl)c3c(F)cccc23)CC1)[C@](O)(Cn1cncn1)c1ccc(F)cc1F | ATCC 64548 | MIC80 | - | resazurin | Candida albicans | 0.125 µg/mL
CC1C(=O)N(CCCc2ccccc2)C(=O)C1C | CCC 134-2000 | MIC | - | broth dilution / turbidity | Candida lusitaniae | 250 µg/mL
O/N=C\c1ccc(F)cc1 | - | MIC100 | - | - | Candida famata | 3600 µM
C=CCc1ccc(Cn2cc(CN3CCN([C@H](C)[C@](O)(Cn4cncn4)c4ccc(F)cc4F)CC3)c3cccc(F)c32)cc1 | ATCC 90028 | MIC80 | - | resazurin | Candida albicans | 1 µg/mL
C[C@@H]1CC(=O)N(CCCc2ccccc2)C1=O | CCC 134-2000 | MIC | - | broth dilution / turbidity | Candida lusitaniae | 125 µg/mL
O/N=C\c1cccs1 | - | MIC100 | - | - | Candida famata | 3930 µM
C[C@@H]1CC(=O)N(c2ccc(F)cc2F)C1=O | CCC 134-2000 | MIC | - | broth dilution / turbidity | Candida lusitaniae | 125 µg/mL
O=[N+]([O-])c1cccc(/C=N\O)c1 | - | MIC100 | - | - | Candida lipolytica | 3010 µM
C[C@@H](N1CCN(Cc2c[nH]c3ccccc23)CC1)[C@](O)(Cn1cncn1)c1ccc(F)cc1F | ATCC 64548 | MIC80 | - | resazurin | Candida albicans | 0.5 µg/mL
O=C1S/C(=C\c2ccoc2)C(=O)N1CC(O)(Cn1nccn1)c1ccc(F)cc1F | Fluconazole-resistant 103 | MIC50 | - | - | Candida colliculosa | 18.5 µg/mL
O=C(CCn1ccnc1)c1cccc(O)c1 | RTCC 1377 | MIC | - | broth dilution | Candida guilliermondii | >64 µg/mL
O=C(NN=Cc1cccs1)c1snnc1C(F)(F)F | NCIM 3462 | zone | 150 µg/mL | agar diffusion / agar | Candida rugosa | 0 mm
c1ccc(C(c2ccccc2)n2ccnc2)cc1 | - | MFC | - | broth dilution | Candida glabrata | 0.5 µg/mL
O=C(NN=Cc1ccc([N+](=O)[O-])cc1)c1snnc1C(F)(F)F | NCIM 3462 | zone | 150 µg/mL | agar diffusion / agar | Candida rugosa | 0 mm
C[C@@H](N1CCN(Cc2cn(Cc3ccc(F)cc3)c3c(Cl)cccc23)CC1)[C@](O)(Cn1cncn1)c1ccc(F)cc1F | ATCC 90028 | MIC80 | - | resazurin | Candida albicans | 2 µg/mL
CCCCCOc1ccc(-c2cc(-c3ccc(C(=O)N[C@H]4C[C@@H](O)[C@@H](O)NC(=O)[C@@H]5[C@@H](O)[C@@H](C)CN5C(=O)[C@H]([C@H](O)CC(N)=O)NC(=O)[C@H]([C@H](O)[C@@H](O)c5ccc(O)c(OS(=O)(=O)O)c5)NC(=O)[C@@H]5C[C@@H](O)CN5C(=O)[C@H]([C@@H](C)O)NC4=O)cc3)no2)cc1 | - | MIC50 | - | broth dilution | Candida lusitaniae | 0.06 µg/mL
O=[N+]([O-])c1ccc(/C=N\O)cc1 | - | MIC100 | - | - | Candida lipolytica | 3010 µM
Nc1scc2c1c(=O)oc1ccccc12 | ATCC 200950 | MIC | - | broth dilution | Candida lusitaniae | 2 µg/mL
OC(CCn1ccnc1)c1cccc(C(O)c2ccc(Br)cc2)c1 | RTCC 1377 | MIC | - | broth dilution | Candida guilliermondii | 16 µg/mL
C[C@@H](N1CCN(Cc2cn(Cc3ccc(F)cc3F)c3c(F)cccc23)CC1)[C@](O)(Cn1cncn1)c1ccc(F)cc1F | ATCC 36082 | MIC80 | - | resazurin | Candida albicans | 0.125 µg/mL
Clc1ccc(C(c2ccccc2)N2CCN(CCn3ccnc3)CC2)cc1 | - | MIC90 | - | agar | Candida dubliniensis | >256 µg/mL
O=C(NN=Cc1ccc(Cl)cc1)c1snnc1C(F)(F)F | NCIM 3462 | zone | 100 µg/mL | agar diffusion / agar | Candida rugosa | 0 mm
C[C@@H](N1CCN(Cc2cn(Cc3ccc(C(F)(F)F)cc3)c3c(F)cccc23)CC1)[C@](O)(Cn1cncn1)c1ccc(F)cc1F | ATCC 64548 | MIC80 | - | resazurin | Candida albicans | 0.125 µg/mL
O/N=C\c1ccccc1 | - | MIC | - | - | Candida famata | 4130 µM

Repeating the final 6 entries:

compound,strain,endpoint,tested at,read by,species,result
OC(CCn1ccnc1)c1cccc(C(O)c2ccc(Br)cc2)c1,RTCC 1377,MIC,-,broth dilution,Candida guilliermondii,16 µg/mL
C[C@@H](N1CCN(Cc2cn(Cc3ccc(F)cc3F)c3c(F)cccc23)CC1)[C@](O)(Cn1cncn1)c1ccc(F)cc1F,ATCC 36082,MIC80,-,resazurin,Candida albicans,0.125 µg/mL
Clc1ccc(C(c2ccccc2)N2CCN(CCn3ccnc3)CC2)cc1,-,MIC90,-,agar,Candida dubliniensis,>256 µg/mL
O=C(NN=Cc1ccc(Cl)cc1)c1snnc1C(F)(F)F,NCIM 3462,zone,100 µg/mL,agar diffusion / agar,Candida rugosa,0 mm
C[C@@H](N1CCN(Cc2cn(Cc3ccc(C(F)(F)F)cc3)c3c(F)cccc23)CC1)[C@](O)(Cn1cncn1)c1ccc(F)cc1F,ATCC 64548,MIC80,-,resazurin,Candida albicans,0.125 µg/mL
O/N=C\c1ccccc1,-,MIC,-,-,Candida famata,4130 µM